From patent US6673355B1 (priority 1995, dated 2004)

System: CD1 mice
Experiment: Diarrhea induction after IP administration to CD1 mice
Format: in vivo, mouse
Conditions: IP administration of 50-100 nmol peptide

DKLTTREIEQVELLKRIKD KLT
# responders/total # tested: 0/11
% Diarrhea: 0%
